Sequences and labels used below:
B1: HIV-1 Env, reservoir clone (protein)
chain: MRVMGMLRNWQHLEKWGLLFLGLLIICSAKDNLWVTVYYGVPVWKEATTTLFCASDAKGYDKEAHNVWATHACVPTDPNPQEIWLKNVTENFNIWRNDMVEQMHTDIISLWDESLKPCVKITPLCVTLNCTNAKFNSTSANSTQEEPGAVQNCTFNTTTELRDKKQKVYALFYRLDLIPLKENNASNNASNEYILINCNTSIIKQACPKVSWDPIPIHYCAPAGYAILKCRDKKFNGTGPCKNVSTVQCTHGVKPVVSTQLLLNGSLAEEDIVIRSENISDNAKTIIVSLNEPVQINCTRPGNNTRKGIHLGPGQTFYARGDIIGDIRKAHCKINKSQWNKTLAQVSTKLKSLLNITGVVFKPPVGGDLEVTMHSFNCRGEFFYCNTSGLFNFSYSVPTNETITINETITIPCKIKQIINMWQGVGQAMYAPPIAGNITCNSNITGILLIRDGGPNSTNNDTFRPGGGDMRDNWRSELYKYKVVEIEPLGVAPTRARRQVVRRERRAVGIGAVFLGFLGAAGSTMGAASITLTVQARQLLSGIVQQQRNLLQAIEAQQHLLKLTVWGIKQLQARVLAVERYLKDQQLLGIWGCSGKLICTTSVPWNSSWSNRSLDEIWNNMTWIDWEREISNYSQEIYKLIEQSQNQQEKNEQELLALDKWASLWSWFDITNWLWYIKIFIMIVGGLIGLRIVFAVLAIVNRVRKGYSPLSLQTLIPSPRGPDRPDGIEEGGGEQGRDRSVRLVTGFLALVWDDLRNLCLFSYRHLRDFILIAARVVDRGLRRGWEILKYLWNLTKYWSQELKNSATSLFNSTAIVVAEGTDRIIEALQAVIRAVLHIPRRIRQGFERALL
B2: HIV-1 Env, reservoir clone (protein)
chain: MRVKGIKKNYQRLWRWGTMLLGLLMICNAEKLWVTVYYGVPVWKEATTTLFCASDAKGYDTEAHNVWATHACVPTDPNPQEIDLVNVNESFNMWKNNMVEQMHQDIISLWDQSLKPCVRLTPLCVNLNCTDLKKGNSTQNTTNTTKLEEKGEGEVKNCSFNITTNYNDKKQQEYAFFYNLDVVKVGDNDTSYRLISCNTSVVTQACPKINFDPIPIHYCAPAGFAILKCKDKKFNGTGICTNVSTVQCTHGIKPVVSTQLLLNGSLAEEEVVIRSENFTNNAKTIIVQLNEAVAINCIRPNNNTRKSIHMGPGKAFYTTGDIIGDIRQAHCNISKGEWNKTLSRVVEKLQGQFGNKTINFNQSSGGDPEIVMHSFNCAGEFFYCNTTGLFNSTWISPSNSTWNNTWNSTENIGENITLPCRIKQIVNRWQEVGKAIYAPPIKGPISCSSNITGILLTRDGGNDNITNNTETFRPGGGDMRDNWRSELYKYKVVEIKPLGVAPTKAKRRVVQREKRAVGLGAVLFGFLGAAGSTMGAASVTLTVQARQLLSGIVQQQNNLLRAIEAQQHLLQLTVWGIKQLQARVLAVERYLRDQQLLGLWGCSGKLICTTAVPWNTSWSNKSMTQIWNHTTWMQWEREIDNYTNIIYNLIEDSQNQQEQNKKELLELDKWASLWNWFDITNWLWYIKLFIMIVGGLIGLRIVFAVLSIVKRVRQGYSPLSLQTLLPTQRGPDRPEGIEEGGGERDRDRSRRLVDGFLALIWDDLRSLCLFSYHRLRDLLLIVTRIVGLLGRRGWDILKYWWNLLQYWIQELKNSAVSLLNYTAIAVAEGTDRIIEVLQRIFRAVLHIPTRIRQGLERALV
B3: HIV-1 Env, reservoir clone (protein)
chain: MRVMGTQRNYPLFWNWVMIIFWMIIIGNANKLWVTVYYGVPVWKEAETTLFCASDAKAYDTEVHNVWATHACVPTDPDPREIPLENVTEKFNIWKNDMVEQMHQDIISLWDQSLKPCVKLTPLCVTLNCTNATAINATGSIVGNSTDMKNCSFNVTTIRRDKMQKEYALFYNLDIVQIDNSDNSSYRLVSCNTSVITQACPKVSFEPIPIHYCAPAGFAIIKCNNKTFNGTGPCTNVSTVQCTHGIKPVVSTQLLLNGSLAEEKIMIRSENITNNAKTIIVQLKESVTINCTRPGNNTRKSIRIGPGQTYYATGAIIGDIRQAHCNVSKKEWMNTLQKVAKQLGEHFISAQNISFNSSSGGDVEITTHSFICGGEFFYCNTTGLFNSTWIRNNTWTNNDTRIYNESSSNWTGTITLQCRIKQYVNLWQRVGRAMYAPPIRGDINCTSNITGLLLTRDGGGNNESQTFRPIGGDMRDNWRSELYKYKVVKIEPLGVAPTYAKRRVVGREKRAVGLGAVFLGFLGAAGSTMGAASITLTVQARQLLSGIVQQQSNLLKAIEAQQHLLRLTVWGIKQLQARVLALERYLRDQQLLGIWGCSGKLICPTTVPWNSSWSNKTFNEIWDNMTWLQWDKEISNYTETIYALIEQSQNQQEKNEQDLLALDKWANLWNWFDITKWLWYIKIFIMIVGGLIGLRIVFAVFSLVNRVRQGYSPLSFQILNHRQREPDRPGRIEEEGGEQDRDRSVRLVNGFLALAWDDLRSLCLFLYHRLRDSVLIATRGVELLGHSILKGLRLGWEALKHLWNLLSYWSQELKNSAISLLDTIAIAVANWTDRVIELGQAAGRAIRHIPRRIRQGLERALL
B4: HIV-1 Env, reservoir clone (protein)
chain: B3 chain with N275S, Q465E, N749S
B5: HIV-1 Env, reservoir clone (protein)
chain: B3 chain with I93M, R401W, N749S
B6: HIV-1 Env, reservoir clone (protein)
chain: MKVKGIRKNYQHLWRWGTMLTMLLGMLMICSAVGNLWVTVYYGVPVWKDASTTLFCASDAKGYETEVHNVWATHACVPTDPSPQELVLKNVTEDFNMWKNNMVEQMQEDIISLWDQSLKPCVQLTPLCVTLNCTNITRGNDTDGTTNGNNTINSDTTGDMKNCSFNISSGIQDRVKKDYAYFYNLDIVQITDDNSSNSYRLINCNTSVITQACPKVSFEPIPIHYCAPAGFAILKCNDKKFNGTGKCKNVSTVQCTHGIKPVVSTQLLLNGSLAEEEVVIRSENFTNNGKNIIVQLKEAVEINCTRVGNNTRKSIHMGPGRAFYANGDIIGNIRLAHCNISKARWNKTLRQIAIKLKEQYNTKTIKFTKSSGGDLEITTHMFNCGGEFFFCNTTQLFNSTWDNSTWNDTGNWNDNTDETITLPCKIKQIINMWQRAGRAMYAPPISGNISCSSNITGLLLTRDGGKNETVSNETVSKEEVFRPGGGDMRDNWRSELYKYKVVKIEPLGVAPTKAKRRVVQREKRAVGLGALFLGFLGAAGSTMGAASITLTAQARQLMSGIVQQQNNLLRAIEAQQHLLQLTVWGIKQLQARVLAVERYLKDQQLLGIWGCSGKLICTTAVPWNTSWSNKSYNEIWDKMTWMQWEREIDNYTGIIYTLIHESQNQQDKNEQELLELDHWASLWNWFDISNWLWYIRLFIMIVGGLVGLRIVFAVLSIVNRIRQGYSPISLQTLLPAQREPDRPGGIEEEGGERDRGRSTRLVHGSLALIWSDLSSLCIFSYHRLRDLLLIAARIVELLGRRGWELLKYWWNLLQYWSQELKNSAVSLLDAVAIAVAEGTDRIIEAAQRAWRRIRQGSERVLL

Substitutions are numbered along the chain they refer to. The list shows a part of the results. Env chains of viruses from a treatment-interruption trial, translated from the printed DNA. IC50 / IC80 of two broadly neutralizing antibodies; lower = more sensitive virus; >50 µg/ml means not reached and <0.001 µg/ml is below the lowest dose. No active / inactive call. Where only a bound is given, the exact number is not on record here.

The target in the first test is antibody 10-1074. As to the kind of experiment: neutralization IC50; higher = virus less sensitive to the antibody. As for the experimental part:
(§1)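 Pseudovirus bearing the Env chain mixed with antibody, from 50 µg/ml in fivefold dilutions, on TZM-bl reporter cells, in duplicate.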
As to B1, the “neutralization IC50” value is over 50 µg/mL.
For B2, the “neutralization IC50” value was determined as 0.008 µg/mL.
The same measure, in the same setting: to B3 belongs 0.02 µg/mL.
As for B4, the “neutralization IC50” value is 0.024 µg/mL.
Still for that read-out and setting: the figure for B5 is 0.023 µg/mL; for B6 it is 1.26 µg/mL.

The target in the next test is antibody 3BNC117. The description is as above. As for the experimental part: as §1
For B1, the “neutralization IC50” value is 9.82 µg/mL.
Still for that read-out and setting: to B2 belongs 0.055 µg/mL; to B3, 0.262 µg/mL.
Still for that read-out and setting: the figure for B4 is 12.9 µg/mL.
On the same count and under the same terms, the figure for B5 is 0.105 µg/mL.
For B6, the “neutralization IC50” value came out at 0.202 µg/mL.

For another test, the target named is antibody 10-1074. The test can be described thus: neutralization IC80; higher = virus less sensitive to the antibody. The method, then: as §1
As to B1, the “neutralization IC80” value is over 50 µg/mL.
As for B2, the “neutralization IC80” value is 0.024 µg/mL.
B3: the “neutralization IC80” value stood at 0.066 µg/mL.
Still for that read-out and setting: the figure for B4 is 0.069 µg/mL; for B5 it is 0.086 µg/mL.
The same measure, in the same setting: to B6 belongs 19.9 µg/mL.

For another test, the target named is antibody 3BNC117. The test is described as above. As for the experimental part: as §1
Regarding B1, the “neutralization IC80” value is over 50 µg/mL.
The same measure, in the same setting: the figure for B2 is 0.201 µg/mL.
Turning to B3, the “neutralization IC80” value came to 0.989 µg/mL.
On the same count and under the same terms, to B4 belongs over 50 µg/mL.
Same read-out and setting: the figure for B5 is 0.534 µg/mL.
On to B6, for which the “neutralization IC80” value was determined as 0.552 µg/mL.

The values are drawn from the supplement of paper PMC12637763.
